Measured data: PubChem BioAssay AID1259414 (Drosophila RNAi Screening Center, 2018)

Purpose: 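Genome-wide screen for host control of endosymbiont load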 (primary screen)
Cells: Drosophila JW18 cells infected with Wolbachia
Knock-down reagent: long dsRNA against Drosophila genes, 0.25 µg dsRNA per well of a 384-well plate
Timing: 5 days
Conditions: cells persistently infected with Wolbachia before knock-down; no added drug
Measured: 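Imaged fluorescence in situ signal for Wolbachia 23S rRNA per DAPI-counted host cell, given as a robust z-score within each plate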
Direction: Wolbachia per cell robust z: higher = more Wolbachia per host cell than the plate typical
Rule for the call: 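Active if absolute robust z reaches 1.5 in two or more of three replicates, leaving out multi- or no-target dsRNAs, genes unexpressed in JW18 and A1 wells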
The screen tested about 24,000 reagents; below is a random part of those with a known target gene and a result. Over the whole deposit, about 1,210 (5%) got an active call. 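Inactive calls also include excluded dsRNAs with several or no targets, genes unexpressed in JW18, and well A1, regardless of score.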 A number with no mark means an inactive call. No sequences are given here.

Gene	amplicon	Wolbachia per cell robust z, rep 1	Wolbachia per cell robust z, rep 2	Wolbachia per cell robust z, rep 3
sphinx2	DRSC22188	0.238	-0.735	1.47
sphinx2	DRSC24771	-0.395	-0.8	0.085
KCNQ	DRSC06121	0.917	-3.82	0.444
KCNQ	DRSC06230	-6.1	-0.201	-0.383
KCNQ	DRSC25242	0.566	-0.308	-0.242
Jon66Ci	DRSC10772	0.368	0.575	0.361
Jon66Ci	DRSC26520	-0.333	0.5	1.95
DhpD	DRSC12288	-1.85	-0.844	-0.751
p53	DRSC17024	0.21	0.975	-0.247
p53	DRSC40777	0.295	0.195	0.0508
CG31997	DRSC17105	0.00989	0.214	-0.56
Ir10a	DRSC18891	-1.83	-1.84	0.677
Ir10a	DRSC19478	-3.21	0.72	-0.935
Ir10a	DRSC19479	-1.24	0.317	-3.21
Tsp42Ef	DRSC06191	-0.537	0.606	0.761
CG12206	DRSC24963	-0.847	-0.51	-0.37
Mpc1	DRSC14770	-0.454	0.857	-0.208
CG34206	DRSC38661	-1.1	0.0153	-6.06

3 consecutive reagents from above:
Gene	amplicon	Wolbachia per cell robust z, rep 1	Wolbachia per cell robust z, rep 2	Wolbachia per cell robust z, rep 3
KCNQ	DRSC25242	0.566	-0.308	-0.242
Jon66Ci	DRSC10772	0.368	0.575	0.361
Jon66Ci	DRSC26520	-0.333	0.5	1.95

Further records follow:
Gene	amplicon	Wolbachia per cell robust z, rep 1	Wolbachia per cell robust z, rep 2	Wolbachia per cell robust z, rep 3
CG30049	DRSC21345	0.772	-0.864	0.787
CG30049	DRSC26709	0.551	1.37	1.15
Wdr33	DRSC12162	-2.45	1.27	0.828
Wdr33	DRSC27065	0.776	0.782	2.29
Dus1	DRSC00623	1.01	0.0949	-1.34
plh	DRSC12294	-0.35	-1.31	0.565
yip3	DRSC04724	0.863	-0.337	-0.413
spz4	DRSC02410	0.479	-0.615	0.981
spz4	DRSC27274	-1.65 (active)	-0.571	-1.73
Wnt4	DRSC00976	-1.73 (active)	-1.23	-1.56
Wnt4	DRSC03477	0.257	-1.04	0.198
